In assay [1] the target is T1, SARS-CoV-2 3CL^pro (Severe acute respiratory syndrome coronavirus 2, UniProt P0DTD1). Nature of the assay: Surface plasmon resonance (SPR) binding to biotinylated 3CL^pro. The following applies: SPR at 10 °C; concentration ranges of up to 100 uM. In general terms: In SPR one partner is held on a chip, and binding of the other changes the refractive index at the surface.

For assay [2], the target named is T1, SARS-CoV-2 3CL^pro. Nature of the assay: 3CL^pro proteolytic activity assay (FRET peptide substrate). The format is biochemical.
The target in a further assay is SARS-CoV-2 PL^pro (Severe acute respiratory syndrome coronavirus 2, UniProt P0DTD1).

Entries after “also recorded” stand apart in the source; their conditions may differ.

For `NC(N)=Nc1nc(CSCCC(N)=NS(N)(=O)=O)cs1` [Famotidine], the “binding to 3CL^pro by SPR (in words)” value on SARS-CoV-2 3CL^pro [1] was “No binding was detected; also recorded: not found to interact”. In addition, the “inhibition of 3CL^pro activity (in words)” value against SARS-CoV-2 3CL^pro [2] is “did not inhibit 3CL^pro activity”. The “inhibition of PL^pro proteolytic activity (in words)” value against SARS-CoV-2 PL^pro is “no reduction in PL^pro activity”.

The record behind these values is publication PMC7940615 (Scientific Reports, 2021).
